Data reported in publication PMC4107925, “Diverse modes of binding in structures of Leishmania major N-myristoyltransferase with selective inhibitors” (IUCrJ, 2014).

Sequences of proteins named here, by UniProt entry; tags and fusion partners are left off. Residues count along the entry.
UniProt Q4Q5S8, 5-421 limits assumed: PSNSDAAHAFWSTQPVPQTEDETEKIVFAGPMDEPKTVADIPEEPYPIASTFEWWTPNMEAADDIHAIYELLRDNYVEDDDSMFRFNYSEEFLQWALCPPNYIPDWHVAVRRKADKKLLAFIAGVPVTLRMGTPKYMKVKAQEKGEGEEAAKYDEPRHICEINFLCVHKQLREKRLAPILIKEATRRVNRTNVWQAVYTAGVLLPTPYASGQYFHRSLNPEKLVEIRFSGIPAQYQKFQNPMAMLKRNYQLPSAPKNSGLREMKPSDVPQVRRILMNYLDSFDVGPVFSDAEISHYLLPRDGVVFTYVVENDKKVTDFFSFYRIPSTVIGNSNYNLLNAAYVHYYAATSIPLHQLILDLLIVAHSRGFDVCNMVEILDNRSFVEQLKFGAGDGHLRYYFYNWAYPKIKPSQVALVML

Target: LmNMT (Leishmania major, UniProt Q4Q5S8)
Experiment: NMT enzyme inhibition assay (non-radioactive), L. major NMT
Assay type: biochemical
Details: read-out: IC50 LmNMT

O=C(Cc1ccc(F)cc1)Nc1ccc2[nH]cc(C3CCNCC3)c2c1
pIC50: 6.26

pIC50: −log10 of the molar value.
